PubChem BioAssay AID624099, ICCB-Longwood | 2012
The whole screen tested about 21,000 reagents; shown is a part drawn at random. 497 of all reagents (2.4%) were called active. 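Higher z means weaker E2 silencing; only reporter increases were scored, and knock-downs that hurt cell survival may mask genuine repressor factors.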

- Test: 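Host factors E2 relies on to silence an HPV18 LCR reporter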 (primary screen)
- System: human C33A cervical carcinoma cells (HPV-negative) stably expressing BPV1 E2 and an HPV18 LCR luciferase reporter
- Reagent: siRNA pool against human genes, 40 nM
- Timing: 72 h
- Detection: 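HPV18 LCR reporter light per well, converted to plate-wise z-scores that exclude control wells, and averaged over triplicate plates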
- Reading the numbers: mean z-score and z-score: higher = stronger reporter signal, weaker E2 silencing
- Call rule: 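Mean z ≥ 2 together with z ≥ 2 in two or more of the three replicates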

DLL3 (delta like canonical Notch ligand 3) | mean z-score: 0.36; z-score, replicate A: 0.16; z-score, replicate B: 0.45; z-score, replicate C: 0.48; Call: inactive
PSG9 (pregnancy specific beta-1-glycoprotein 9) | mean z-score: 1.33; z-score, replicate A: 1.19; z-score, replicate B: 1.39; z-score, replicate C: 1.43; Call: inactive
HOOK3 (hook microtubule tethering protein 3) | mean z-score: -2.41; z-score, replicate A: -2.5; z-score, replicate B: -2.84; z-score, replicate C: -1.89; Call: inactive
HLA-F (major histocompatibility complex, class I, F) | mean z-score: 0.14; z-score, replicate A: 0.35; z-score, replicate B: 0; z-score, replicate C: 0.06; Call: inactive
AGAP2 (ArfGAP with GTPase domain, ankyrin repeat and PH domain 2) | mean z-score: -0.53; z-score, replicate A: -0.5; z-score, replicate B: -0.63; z-score, replicate C: -0.47; Call: inactive
DPP10 (dipeptidyl peptidase like 10) | mean z-score: -0.37; z-score, replicate A: -0.76; z-score, replicate B: -0.25; z-score, replicate C: -0.11; Call: inactive
CUTALP (cutA divalent cation tolerance like, pseudogene) | mean z-score: 0; z-score, replicate A: -0.08; z-score, replicate B: 0.06; z-score, replicate C: 0.01; Call: inactive
EIF2B2 (eukaryotic translation initiation factor 2B subunit beta) | mean z-score: -1.62; z-score, replicate A: -1.49; z-score, replicate B: -1.76; z-score, replicate C: -1.6; Call: inactive
RADIL (Rap associating with DIL domain) | mean z-score: 0.21; z-score, replicate A: 0.14; z-score, replicate B: 0.51; z-score, replicate C: -0.01; Call: inactive
SERTAD4BP (SERTA domain containing 4B, pseudogene) | mean z-score: -0.4; z-score, replicate A: -0.26; z-score, replicate B: -0.54; z-score, replicate C: -0.4; Call: inactive
HRH1 (histamine receptor H1) | mean z-score: -0.18; z-score, replicate A: 0.19; z-score, replicate B: -0.1; z-score, replicate C: -0.63; Call: inactive
RAPGEF1 (Rap guanine nucleotide exchange factor 1) | mean z-score: 1.01; z-score, replicate A: 0.89; z-score, replicate B: 1.19; z-score, replicate C: 0.95; Call: inactive

2 of these entries, set out differently.
gene knocked down	mean z-score	z-score, replicate A	z-score, replicate B	z-score, replicate C	Call
CUTALP (cutA divalent cation tolerance like, pseudogene)	0	-0.08	0.06	0.01	inactive
EIF2B2 (eukaryotic translation initiation factor 2B subunit beta)	-1.62	-1.49	-1.76	-1.6	inactive
